Experimental data published in patent US20240295544A1 (priority 2020, published 2024).

Test system: CMs
Assay type: cell-based
Conditions: CMs exposed to SARS-CoV-2

IFN-β: Interferon β, Sigma Aldrich (IF014), 2500 U/mL
incidence of myofibrillar disruption: did not reduce the incidence of myofibrillar disruption
